Test results published in paper PMC7245249 (Biomedical Journal, 2020).

Assay: in vitro
Conditions: human

Work on COc1ccc(C[C@H]2NC[C@H](O)[C@H]2OC(C)=O)cc1 [Anisomycin] yielded a CC50 of 22.8 ± 0.94 µM.
